Measurements reported in PubChem BioAssay AID624099 (ICCB-Longwood, 2012).
The whole screen tested about 21,000 reagents; below is a random part of them. Over the whole deposit, 497 (2.4%) are marked active. 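Higher z means weaker E2 silencing; only reporter increases were scored, and knock-downs that hurt cell survival may mask genuine repressor factors.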

Assay: 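Host factors E2 relies on to silence an HPV18 LCR reporter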 (primary screen)
System: human C33A cervical carcinoma cells (HPV-negative) stably expressing BPV1 E2 and an HPV18 LCR luciferase reporter
Reagents: siRNA pool against human genes, 40 nM
Duration: 72 h
Detection: 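HPV18 LCR reporter light per well, converted to plate-wise z-scores that exclude control wells, and averaged over triplicate plates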
Direction: mean z-score and z-score: higher = stronger reporter signal, weaker E2 silencing
Call rule: 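Mean z ≥ 2 together with z ≥ 2 in two or more of the three replicates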

For IFIT1, what does the deposit list?
mean z-score: 1.23; z-score, replicate A: 1.22; z-score, replicate B: 1.37; z-score, replicate C: 1.11; call: inactive

How did the screen score GJB7?
mean z-score: -0.73; z-score, replicate A: -1.08; z-score, replicate B: -0.66; z-score, replicate C: -0.46; call: inactive

For BRD1, how do the results read?
mean z-score: -0.91; z-score, replicate A: -0.72; z-score, replicate B: -1.01; z-score, replicate C: -1; call: inactive

For PHLDB1, how do the results read?
mean z-score: -0.73; z-score, replicate A: -0.67; z-score, replicate B: -0.95; z-score, replicate C: -0.56; call: inactive

With RNF157, how do the results read?
mean z-score: 0.55; z-score, replicate A: 0.55; z-score, replicate B: 0.65; z-score, replicate C: 0.46; call: inactive

For THUMPD3, how do the results read?
mean z-score: -0.26; z-score, replicate A: -0.59; z-score, replicate B: -0.12; z-score, replicate C: -0.07; call: inactive

2 entries from above, reformatted:
target gene | mean z-score | z-score, replicate A | z-score, replicate B | z-score, replicate C | call
BRD1 | -0.91 | -0.72 | -1.01 | -1 | inactive
PHLDB1 | -0.73 | -0.67 | -0.95 | -0.56 | inactive

The listing continues.
Which result is listed for ZNF428?
mean z-score: 0.04; z-score, replicate A: 0.27; z-score, replicate B: -0.35; z-score, replicate C: 0.22; call: inactive

With PRDM2, what was measured?
mean z-score: -0.88; z-score, replicate A: -1; z-score, replicate B: -0.61; z-score, replicate C: -1.03; call: inactive

For SOX12, what was measured?
mean z-score: -1.06; z-score, replicate A: -0.97; z-score, replicate B: -1.22; z-score, replicate C: -0.99; call: inactive

What did the screen give for PGLYRP1?
mean z-score: 0.89; z-score, replicate A: 0.69; z-score, replicate B: 1; z-score, replicate C: 0.98; call: inactive

What did the screen give for STAG3L4?
mean z-score: -0.08; z-score, replicate A: -0.33; z-score, replicate B: 0.23; z-score, replicate C: -0.14; call: inactive

With SPPL2C, how do the results read?
mean z-score: -0.23; z-score, replicate A: -0.23; z-score, replicate B: -0.15; z-score, replicate C: -0.3; call: inactive

With PPP1R1B, what does the deposit list?
mean z-score: -1.04; z-score, replicate A: -1.14; z-score, replicate B: -1.28; z-score, replicate C: -0.71; call: inactive

For ZNF143, how do the results read?
mean z-score: -0.44; z-score, replicate A: -0.46; z-score, replicate B: -0.45; z-score, replicate C: -0.4; call: inactive
